# Results: PubChem BioAssay AID504848 (National Center for Advancing Translational Sciences (NCATS), 2011)
# Only a part is listed here, and it is no random draw. Records with an inconclusive call do not appear. Calls of active or inactive are those of the source. The call rests on the fitted dose curve; in most records, active means well fitted inhibition curve with a large enough effect; inconclusive means small, poorly fitted or top-dose-only effect, or effect the other way; inactive means no such curve, though single readings can be large or run the other way.
# Test: Confirmation screen for delayed death inhibitors of the malarial parasite plastid, 96 hour incubation; further: nearly all actives have a fitted effect of over 60% in size
# Settings: P. falciparum luciferase growth in erythrocytes
# Potency means the concentration at half of the fitted maximal effect.
row,Compound,Potency
1,Nc1ccccc1[As](=O)(O)c1ccccc1,active: 15.8 µM
